These compounds were tested on Hek293 / PMBC versus S. aureus 2, MRSA in vivo (assay: Selectivity index (LD50 Hek293/PMBC divided by MIC S. aureus 2)). Details: lower LD50 of Hek293 and PMBC (converted to μg/mL) divided by MIC against S. aureus 2, MRSA in vivo.
Format: cell-based

SMILES	SI (Selectivity index)
CCCCCCCC=CC(=O)N1C(=O)C(=C(O)CCCCC)C(=O)C1CC(C)C (stereo not shown) [23c]	25
CCCCCCCCCC(O)=C1C(=O)C(CCSC)N(C(=O)Cc2cccs2)C1=O (stereo not shown) [24m]	6.9
CCCCCCCCCCCC(O)=C1C(=O)CCN(C(=O)c2ccccc2)C1=O [25b]	>73
CSCCC1C(=O)C(=C(O)CC23CC4CC(CC(C4)C2)C3)C(=O)N1C(=O)C1CCCCC1 (stereo not shown) [31f]	21
CCCCCCCCCC(O)=C1C(=O)C(CCSC)N(C(=O)CC(C)CC(C)(C)C)C1=O (stereo not shown) [24k]	<9.5
CCCCCCC(=O)N1CC(=O)C(=C(O)CCCC2CCCCC2)C1=O [27c]	11
CSCCC1C(=O)C(=C(O)CC23CC4CC(C)(CC(C)(C4)C2)C3)C(=O)N1C(C)=O (stereo not shown) [31e]	3.2
CCCCCCC(=O)N1CC(=O)C(=C(O)CC(C)CC(C)(C)C)C1=O (stereo not shown) [27h]	21
CCCCCCCCCC(O)=C1C(=O)CCN(C(=O)c2ccc(OC)cc2)C1=O [25d]	9.1
CCCCCC(O)=C1C(=O)C(CCSC)N(C(=O)CC(C)CC(C)(C)C)C1=O (stereo not shown) [24i]	<8.3
CCCCCCC(=O)N1CC(=O)C(=C(O)CC2CC3CCC2C3)C1=O (stereo not shown) [27a]	16
CC(C)CC1C(=O)C(=C(O)CCCCCc2ccccc2)C(=O)N1C(=O)c1ccccc1 (stereo not shown) [30a]	19
CCCCCCC(=O)N1CC(=O)C(=C(O)CCCOc2ccc(Cl)cc2C)C1=O [28h]	6.4
CCCC(=O)N1CC(=O)C(=C(O)CC23CC4CC(C)(CC(C)(C4)C2)C3)C1=O [27k]	5.7
CCCCCCC(=O)N1CC(=O)C(=C(O)CC23CC4CC(CC(C4)C2)C3)C1=O [27i]	<16
CCCCCCCCCCCCC/C(O)=C1\C(=O)[C@@H]2CCCC(=O)N2C1=O [22b]	8.6
CCCCCCCC=CC(=O)N1C(=O)C(=C(O)CCC)C(=O)C1CC(C)C (stereo not shown) [23b]	137
CCCCCCCC(O)=C1C(=O)C(CCSC)N(C(=O)CC(C)CC(C)(C)C)C1=O (stereo not shown) [24j]	<8.9
CCCCCCCCCCCC(O)=C1C(=O)C(CCSC)N(C(C)=O)C1=O (stereo not shown) [24b]	12
CCCCCCCC=CC(=O)N1C(=O)C(=C(C)O)C(=O)C1CC(C)C (stereo not shown) [23a]	4.0
CCCCCCCC(O)=C1C(=O)C(CCSC)N(C(=O)C2CCCCC2)C1=O (stereo not shown) [24e]	>75
CCCCCCCCCC(O)=C1C(=O)CCN(C(=O)c2ccccc2)C1=O [25a]	>8.4

Source: US9765069B2, “Antimicrobial compounds” (OXFORD UNIVERSITY INNOVATION LIMITED, priority 2012, dated 2017)
